For at least one entry, the source does not settle the construct or the ends of the probe. A negative result means that nothing was seen under these conditions.

For data set [1], the system named is KPAF4-Mut (Trypanosoma brucei (procyclic 29-13)). Kind of data set: EMSA. The note with it: within the protein concentration range afforded by the assay. Background: In EMSA bound probe runs differently from free probe, usually more slowly.
Data set [2] has as its system KPAF4-WT (Trypanosoma brucei (procyclic 29-13)). Kind of data set: EMSA.

As for “GGGUGGUGGUUUUGUUGAUUUACCCGGUGUAAAGUAUUAUACACGUAUUGUAAGUUAGAUUUAGAUAUAAGAUAUGUUUUU [No-tail RPS12 RNA]”, the binding result in data set [1] and in data set [2] was “no binding” in each case.

Regarding “GGGUGGUGGUUUUGUUGAUUUACCCGGUGUAAAGUAUUAUACACGUAUUGUAAGUUAGAUUUAGAUAUAAGAUAUGUUUUUAAAAAAAAAAAAAAAAAAAA [A-tail RPS12 RNA]”, the binding result in data set [1] is reported as “no binding”; in data set [2], “binds”.

For “GGGUGGUGGUUUUGUUGAUUUACCCGGUGUAAAGUAUUAUACACGUAUUGUAAGUUAGAUUUAGAUAUAAGAUAUGUUUUUUUUUUUUUUUUUUUUUUUUU [U-tail RPS12 RNA]”, the binding result in data set [1] and in data set [2] was “no binding” in each case.

For the origin of these results see doi:10.1101/456418.
